Source: ChEMBL document CHEMBL1687735, “Resistance to colistin in Acinetobacter baumannii associated with mutations in the PmrAB two-component system” (Antimicrob Agents Chemother, 2009)
Active and inactive are the calls of the source. No cut-off for these calls is given here.

Assays:
Type in all cases: functional, organism-based
Acinetobacter baumannii [1] = test: Increase of pmrA gene expression in Acinetobacter baumannii MAC101 harboring PmrA P102H, PmrB A262P mutant by RT-PCR analysis relative to 16S rRNA expression
Acinetobacter baumannii [2] = test: Increase of pmrA gene expression in Acinetobacter baumannii MAC102 harboring PmrB A227V mutant by RT-PCR analysis relative to 16S rRNA expression
Acinetobacter baumannii [3] = test: Increase of pmrA gene expression in Acinetobacter baumannii MAC201 harboring PmrB T13N, PmrB P233S mutant by RT-PCR analysis relative to 16S rRNA expression
Acinetobacter baumannii [4] = test: Increase of pmrA gene expression in Acinetobacter baumannii MAC203 harboring PmrB T13N, PmrB P233S, PmrB (411-444) deletion mutant by RT-PCR analysis relative to 16S rRNA expression
Acinetobacter baumannii [5] = test: Antibacterial activity against Acinetobacter baumannii MAC203 harboring PmrB T13N, PmrB P233S, PmrB (411-444) deletion mutant assessed as bacterial survival at pH 5.5 after 1 hr
Acinetobacter baumannii [6] = test: Antibacterial activity against Acinetobacter baumannii MAC203 harboring PmrB T13N, PmrB P233S, PmrB (411-444) deletion mutant assessed as bacterial survival at pH 7.7 after 1 hr
Acinetobacter baumannii [7] = test: Antibacterial activity against Acinetobacter baumannii MAC203 harboring PmrB T13N, PmrB P233S, PmrB (411-444) deletion mutant assessed as bacterial survival after 1 hr in absence of ferric chloride
Acinetobacter baumannii [8] = test: Antibacterial activity against Acinetobacter baumannii MAC203 harboring PmrB T13N, PmrB P233S, PmrB (411-444) deletion mutant assessed as bacterial survival after 1 hr in presence of ferric chloride

COLISTIN SULFATE
fold change (FC) (Acinetobacter baumannii [1]): 5 | fold change (FC) (Acinetobacter baumannii [2]): 5 | fold change (FC) (Acinetobacter baumannii [3]): 5 | Activity (Acinetobacter baumannii [4]): inactive | Survival (Acinetobacter baumannii [5]): 68% | Survival (Acinetobacter baumannii [6]): < 1% | Survival (Acinetobacter baumannii [7]): 0.1% | Survival (Acinetobacter baumannii [8]): 15%
